Assay results reported in article PMC4895005, “Auto-Assembling Detoxified Staphylococcus aureus Alpha-Hemolysin Mimicking the Wild-Type Cytolytic Toxin” (2016).

Target: HlaPSGS (alpha-hemolysin with the stem domain replaced by the linker PSGS), Staphylococcus aureus NCTC8325 (UniProt Q2G1X0)
Assay: SEC

HlaPSGS (alpha-hemolysin with the stem domain replaced by the linker PSGS)
stoichiometry N: 7
